Experimental data: patent US10184933B2, “Compositions, systems and methods for gene expression noise drug screening and uses thereof” (priority 2013, dated 2019)

Test system: latent HIV-1 in JLat 8.6 cells
Assay type: cell-based

## bleomycin [V66]
  synergy in reactivation of HIV-1 latency: synergized
